From article doi:10.1101/2024.08.19.608619, “Discovery of potent SARS-CoV-2 nsp3 macrodomain inhibitors uncovers lack of translation to cellular antiviral response” (bioRxiv, 2024)

tested on: SARS-CoV-2, isolate USA-WA1/2020; assay type: cell-based; conditions: HeLa-ACE2 SARS-CoV-2 antiviral effect without P-gp inhibitor; dose-response fit

| SMILES | hill_slope |
| --- | --- |
| CC(C)[C@H](Nc1ncnc2[nH]c(-c3cnn(C)c3C#N)cc12)c1ccc2c(n1)OCCO2 [ASAP-0010715] | -1.629 |
| CC(C)[C@@H](Nc1ncnc2[nH]c(-c3cnn(C)c3C#N)cc12)c1ccc2c(n1)OCCO2 [ASAP-0010716] | -1.375 |
| CNCc1cc(-c2cc3c(N[C@@H](c4ccc5c(c4)S(=O)(=O)CCC5)C(C)C)ncnc3[nH]2)co1 [ASAP-0011176] | -1.471 |
| CC(C)C(Nc1ncnc2[nH]c(C(=O)NC3CCN(C)C3)cc12)c1ccc2c(c1)S(=O)(=O)CCC2 (stereo not shown) [ASAP-0011198] | -0.788 |
| Cn1ncc(-c2cc3c(N[C@@H](c4ccc5c(n4)OCCO5)C(C)(C)C)ncnc3[nH]2)c1C#N [ASAP-0011221] | -0.781 |
| Cc1nn(C)cc1-c1cc2c(NC(c3ccc4c(c3)S(=O)(=O)CCC4)C(C)C)ncnc2[nH]1 (stereo not shown) [ASAP-0011446] | -2.191 |
| COc1ccc([C@H](Cc2nnn[nH]2)NC(=O)c2ncnc3[nH]ccc23)cc1 [ASAP-0015381] | -1.346 |
